Data taken from paper doi:10.1101/2022.02.04.479134, “A Suite of TMPRSS2 Assays for Screening Drug Repurposing Candidates as Potential Treatments of COVID-19” (bioRxiv, 2022).

Sequences of proteins named here, by UniProt entry; tags and fusion partners are left off. Residues count along the entry.
UniProt O15393, 106-492 limits assumed: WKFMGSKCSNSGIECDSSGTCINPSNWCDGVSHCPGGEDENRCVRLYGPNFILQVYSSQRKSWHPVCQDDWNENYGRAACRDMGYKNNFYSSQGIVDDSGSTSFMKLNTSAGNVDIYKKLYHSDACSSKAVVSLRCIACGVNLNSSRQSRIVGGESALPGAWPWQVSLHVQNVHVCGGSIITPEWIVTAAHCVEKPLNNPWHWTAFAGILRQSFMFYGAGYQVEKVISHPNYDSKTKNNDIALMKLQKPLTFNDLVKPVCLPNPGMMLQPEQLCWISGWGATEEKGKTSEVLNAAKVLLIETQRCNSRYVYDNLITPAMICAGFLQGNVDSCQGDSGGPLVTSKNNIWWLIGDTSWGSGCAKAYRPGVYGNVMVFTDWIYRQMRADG

Legend:
[1] = Fluorescence counterassay (AMC quenching); conditions: 1 μM AMC; 0% = 1 μM AMC, −100% = 0.1 μM AMC; <0% = quenching
[2] = molecular target: Recombinant Human TMPRSS2 (Homo sapiens, UniProt O15393); conditions: read-out: Biochemical (fluorogenic) AC50; 10 μM Boc-QAR-AMC, 0.175 μM TMPRSS2, 1 h RT, 11-point dose-response in triplicate

In the case of `COc1ccc(CC(=O)NC(NC(=NC#N)Nc2cccc3ncccc23)C(C)(C)C)cc1OC` (centres unmarked), the “Biochemical (fluorogenic counterassay) Max Response” value [1] is reported as 31.2% and the AC50 [2] is reported as 20.3 µM.
